Results on one compound are retold here after PMC8238200, “NleB2 from enteropathogenic Escherichia coli is a novel arginine-glucose transferase effector” (2021).

In the assay the target is NleB1 (Escherichia coli, UniProt B7UI21). As to the kind of experiment: UDP-Glo assay (UDP release, luminescence), Michaelis-Menten fit. Particulars: acceptor 1 μM MBP-RIPK1DD (human death domain); 150 nM enzyme; pH 7.4, 10 mM MgCl2, 1 mM MnCl2, 30 °C, 30 min.

Structures are written as SMILES.

For the compound `CC(=O)N[C@H]1[C@@H](OP(=O)(O)OP(=O)(O)OC[C@H]2O[C@@H](n3ccc(=O)[nH]c3=O)[C@H](O)[C@@H]2O)O[C@H](CO)[C@@H](O)[C@@H]1O`, the Km entry was “while the reverse was true for NleB2S252G and NleB1”.
